Compound potency records, mixed from different reports. Data source: NIAID ChemDB in PubChem.

Shared fields: tests in culture

Blank or dashed fields: not listed here. Rows are shuffled and stem from different studies. ECn is the concentration giving n% inhibition of infection, replication or growth. Percent inhibition refers to the dose given; in toxicity tests it is the harm to the cells.

| smiles | cell line | agent | measure | read by | strain or isolate | tested at | value |
|---|---|---|---|---|---|---|---|
| CC(C)Nc1nc2cc(Cl)c(Cl)cc2n1[C@@H]1O[C@@H](C)[C@@H](O)[C@H]1O | HSB-2 | Human herpesvirus 6 | EC50 | hybridisation | 6a | - | >10 µM |
| O=c1[nH]c(=O)n([C@H]2C[C@H](O)[C@@H](CO)O2)cc1/C=C/Br | SupT1 | Human herpesvirus 7 | EC50 | syncytia | - | - | >20 µM |
| Nc1ccn([C@@H]2C=C(CO)[C@@H](O)[C@H]2O)c(=O)n1 | WI-38 | Human coronavirus | EC50 | cytopathic effect | Strain 229E 229E | - | 10 µg/mL |
| Nc1ncc2c(ncn2COC(CO)CO)n1 | SupT1 | Human herpesvirus 7 | EC50 | syncytia | - | - | 0.0001 µM |
| O[C@@H]1[C@H](O)[C@H](O)CO[C@H]1n1c(Br)nc2cc(Cl)c(Cl)cc21 | MOLT-3 | Human herpesvirus 6 | EC50 | hybridisation | 6B | - | >30 µM |
| Nc1nc2c(ncn2[C@@H]2C[C@H](CO)[C@H]2CO)c(=O)[nH]1 | SupT1 | Human herpesvirus 7 | EC50 | syncytia | - | - | 3.4 µM |
| Nc1nc2c(ncn2COC(CO)CO)c(=O)[nH]1 | - | Human cytomegalovirus | EC50 | plaque count | VR5120 (ganciclovir-resistant) | - | 25 µM |
| Nc1nc2c(ncn2CCC(CO)CO)c(=O)[nH]1 | HUMAN CORD BLOOD CELLS | Human herpesvirus 7 | inhibition | antigen | SB | 10 µM | 30% |
| CC(=O)N[C@@H](CC(C)C)C(=O)N[C@@H](CC(C)C)C(=O)N[C@H](C=O)CCCN=C(N)N | MRC-C | Human coronavirus | EC50 | plaque count | 229E 229E | - | 0.4 µg/mL |
| OC[C@H]1O[C@@H](n2c(Br)nc3cc(Cl)c(Cl)cc32)[C@H](O)[C@@H]1O | MRC-5 | Human cytomegalovirus | EC50 | virus yield | - | - | 0.08 µM |
| O=c1[nH]c(=O)n([C@H]2C[C@H](O)[C@@H](CO)O2)cc1/C=C/Br | HEL | Human cytomegalovirus | inhibition | plaque count | - | 20 µM | 29.3% |
| N#CC1C(c2ccccc2)Nc2sccc2S1(=O)=O | MOLT-3 | Human herpesvirus 6 | EC50 | cytopathic effect | Z29 (TYPE 6B) | - | >20 µg/mL |
| Nc1ncnc2c1ncn2[C@@H]1O[C@H](CO)[C@@H](O)[C@@H]1O | HEL | Human cytomegalovirus | inhibition | plaque count | - | 1 µM | 24.2% |
| C[C@H]1O[C@H](n2c(Br)nc3cc(Cl)c(Cl)cc32)[C@@H](O)[C@H]1O | HSB-2 | Human herpesvirus 6 | EC50 | hybridisation | 6a | - | 10 µM |
| C=C1[C@H](CO)[C@@H](O)C[C@@H]1n1cnc2c(=O)[nH]c(N)nc21 | WI-38 | Human papillomavirus | EC50 | plaque count | - | - | 2.8 µM |
| Nc1nc2c(ncn2C[C@]2(CO)C[C@H]2CO)c(=O)[nH]1 | MOLT-3 | Human herpesvirus 6 | EC50 | - | TYPE 6A | - | 3.4 µg/mL |
| OC[C@H]1O[C@@H](n2c(Br)nc3cc(Cl)c(Cl)cc32)[C@H](O)[C@@H]1O | - | Human cytomegalovirus | EC50 | virus yield | C4 (D341E) | - | <6.8 µM |
| O=C(NCc1ccc(Cl)cc1)c1c[nH]c2ccc(C#CCO)cc2c1=O | - | Human cytomegalovirus | EC50 | plaque count | SCH | - | 1.3 µM |
| CC(C)Nc1nc2cc(Cl)c(Cl)cc2n1[C@H]1O[C@@H](CO)[C@H](O)[C@@H]1O | MRC-5 | Human cytomegalovirus | EC50 | plaque count | AD169 | - | 0.54 µM |
| N#CC1=C(c2ccccc2)Nc2sccc2S1(=O)=O | HSB-2 | Human herpesvirus 6 | EC50 | cytopathic effect | GS (TYPE 6A) | - | >20 µg/mL |
| CC(C)Nc1nc2cc(Cl)c(Cl)cc2n1[C@H]1O[C@H](C)[C@H](O)[C@@H]1O | MOLT-3 | Human herpesvirus 6 | EC50 | hybridisation | 6B | - | >100 µM |
| Cn1cc(C(=O)NCc2ccc(Cl)cc2)c(=O)c2cc(CN3CCOCC3)ccc21 | HFF | Human cytomegalovirus | inhibition | plaque count | DAVIS | 3.7 µM | 90% |
| N#CC1C(c2ccc(Cl)cc2)Nc2sccc2S1(=O)=O | HSB-2 | Human herpesvirus 6 | EC50 | hybridisation | GS (TYPE 6A) | - | 2.9 µg/mL |
| NC1=NC2C(C=CN2CC(CO)CCO)C(=O)N1 | SupT1 | Human herpesvirus 7 | EC50 | syncytia | - | - | >107 µM |
| Cc1ccc2ncnc(Nc3ccc(Cl)c(Cl)c3)c2c1 | HFF | Human cytomegalovirus | inhibition | plaque count | AD169-GFP | 1.1 µM | 18% |
| NC(=O)c1c(Cl)c(-c2cccnc2)n2c1CCCC2 | SupT1 | Human herpesvirus 7 | EC50 | - | HRK | - | 0.0143 µM |
| Nc1nc2c(ncn2COC(CO)CO)c(=O)[nH]1 | CD4+ T lymphocytes | Human herpesvirus 7 | EC50 | syncytia | - | - | 10.7 µM |

Repeating the final 2 entries:

smiles,cell line,agent,measure,read by,strain or isolate,tested at,value
NC(=O)c1c(Cl)c(-c2cccnc2)n2c1CCCC2,SupT1,Human herpesvirus 7,EC50,-,HRK,-,0.0143 µM
Nc1nc2c(ncn2COC(CO)CO)c(=O)[nH]1,CD4+ T lymphocytes,Human herpesvirus 7,EC50,syncytia,-,-,10.7 µM